{"source": "paper PMC7029142", "about": "“Analysis of Dot/Icm Type IVB Secretion System Subassemblies by Cryoelectron Tomography Reveals Conformational Changes Induced by DotB Binding” (mBio, 2020)", "molecules": {"B1": {"name": "DotO (VirB4-related) ATPase (enzyme)", "chain": "MANWSESFFEGVDTFFAWLSTSLKQTTESYIDLETADSPTVLVNHDGSLLSVLKIEGITGLAGPEEFERLVEGLANSFQAAMGRPGHALQVYFSHDKQNIVKMIKDIYDPAEATASRLELNLRDLFEERVNYLSQYCAEERVYFVLYTRPFNLASDQLKAANKAKMKMIKDTKAPPFKNTQTIFAAVPEIRDTHDAYVRAILNDLDALNVIAKLLEVHDAVHAIRMTGDPDYTADDWRATLPGDKIPVRELNNFEGDPSDLLWPPLSRQVLPRDAEIIDLRTVRVGDKIYASTYIDLFPKDVRPFISLFSRILPSHVPWKISFLLESEGLSTIKLKGLLAAILSFSSAQNRLISDSVNLLKYIQLNTDEAIVRLRVVATTWAPEGNIPLLRRRSSELVKAIEGWGSTDVSEICGDPFAGFVSSMLATTLNSSAVASVAPLSDVISMLPITRPASPWKTGALLFRTPDGKPWPFQPGSTEQTTWIDLVYARPGSGKSVLSNALNLALCLSGGLMRLPRIAIIDIGPSSSGLISLLKEALPASKRHLVAYHRLRMTPDYSINPFDTQLGCRYPTALERSFLVNFMTLLTTPLGAAKPYDGMADLAGMVVDELYKSMADEFNPTPYAPGIEEFIDGILEEIGFVRDAKSTWWEVTDALYSAGFVHEAMLAQRYAMPLLADAASICRTPSIEDLYEKITAPTGESLINAFSRMISSAVREYPILSRVTSFDIGDARVVSLDLDEVAKSGGDAADRQTAVMYMLARYVLARHYYLTEESLNNVPEQYKEYHKQRVLEIREDHKRIVYDEFHRTAKSSAVREQVIIDMREGRKWKVQISLLSQAVDDFDPVMIDFATAIYVMDAGPSQAVEKTSQIFGLSETAKIALRTRVHGPRQGGATFLAQFATKTGINVQLLTLTLGPVELWAFSTTAEDATVRNLLYRHLGPSEARRLLAALFPNGTVTKELEARLASMKQKVGLIEDDEREGMINQLVNDILDAYSKDPNVKSLPAKVG"}}, "key": {"[1]": {"target": "DotB (VirB11-related) ATPase (L. pneumophila (endogenous in strains derived from LP01 and LP02))", "assay": "cryo-EM structure"}, "[2]": {"target": "the molecule itself", "assay": "cryo-EM structure"}}, "data": [{"molecule": "DotB (VirB11-related) ATPase (enzyme)", "values": [{"measurement": "stoichiometry N", "setting": "[1]", "value": 6}]}, {"molecule": "B1", "values": [{"measurement": "stoichiometry N", "setting": "[2]", "value": 12}]}]}
